Results deposited as PubChem BioAssay AID624099 (ICCB-Longwood, 2012).
In all, the deposit lists about 21,000 reagents; below is a part drawn at random. 497 of all reagents (2.4%) were called active. 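Higher z means weaker E2 silencing; only reporter increases were scored, and knock-downs that hurt cell survival may mask genuine repressor factors.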

- Purpose: 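Knock-downs relieving repression by E2 of an HPV18 LCR luciferase reporter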 (primary screen)
- Cells: human C33A cervical carcinoma cells (HPV-negative) stably expressing BPV1 E2 and an HPV18 LCR luciferase reporter
- Reagent: siRNA pool against human genes, 40 nM
- Time to read-out: 72 h
- Measured: 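Per-well luciferase luminescence, z-scored on each plate against the plate mean and SD with control wells left out, then averaged across three replicate plates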
- Reading the numbers: mean z-score and z-score: higher = stronger reporter signal, weaker E2 silencing
- Rule for the call: 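Hit if mean z-score reaches 2 and two or more of three replicate z-scores also reach 2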

| gene | mean z-score | z-score, replicate A | z-score, replicate B | z-score, replicate C | Call |
| --- | --- | --- | --- | --- | --- |
| EDEM3 | 0.22 | -0.08 | 0.6 | 0.14 | inactive |
| ELAC2 | -0.15 | -0.54 | 0.22 | -0.12 | inactive |
| CFAP36 | 0.89 | 0.82 | 0.83 | 1.03 | inactive |
| RAI1 | -1.26 | -1.12 | -1.5 | -1.17 | inactive |
| TTTY5 | -0.78 | -1.05 | -0.4 | -0.89 | inactive |
| PSMA3 | 0.9 | 0.84 | 0.87 | 1 | inactive |
| ZNF786 | -1.24 | -1.37 | -1.04 | -1.32 | inactive |
| RNFT1 | -0.23 | -0.05 | -0.54 | -0.11 | inactive |
| RWDD2A | 1.06 | 1.03 | 0.92 | 1.22 | inactive |
| RGS6 | 0.08 | 0.01 | 0.16 | 0.07 | inactive |
| CD274 | 0.89 | 1.17 | 0.71 | 0.78 | inactive |
| API5 | 0.15 | 0.62 | 0.01 | -0.18 | inactive |
| C3orf22 | -1.61 | -1.36 | -1.77 | -1.7 | inactive |
| SLFN13 | 1.52 | 1.54 | 1.61 | 1.43 | inactive |
| COP1 | 0.3 | 0.28 | 0.13 | 0.5 | inactive |
| SRGAP2 | 0.18 | 0.22 | 0.19 | 0.14 | inactive |
| FILIP1 | 0.29 | 0.5 | 0.43 | -0.06 | inactive |
| ALDOA | 2.12 | 1.72 | 2.13 | 2.51 | active |
| ZYG11A | -0.01 | 0.2 | -0.1 | -0.14 | inactive |
| DOK2 | 0.52 | 0.37 | 0.55 | 0.64 | inactive |
| KRTAP21-2 | 0.42 | 0.06 | 0.27 | 0.93 | inactive |
| PRDX4 | -0.47 | -0.28 | -0.51 | -0.64 | inactive |
| IL20 | 0 | -0.27 | 0.19 | 0.08 | inactive |

Next part (2 carried over from the part before).
| gene | mean z-score | z-score, replicate A | z-score, replicate B | z-score, replicate C | Call |
| --- | --- | --- | --- | --- | --- |
| PRDX4 | -0.47 | -0.28 | -0.51 | -0.64 | inactive |
| IL20 | 0 | -0.27 | 0.19 | 0.08 | inactive |
| SLC35F1 | 1.96 | 1.68 | 2.25 | 2.01 | inactive |
| CYP51A1 | 1.4 | 1.42 | 1.22 | 1.56 | inactive |
| LHFPL1 | -0.6 | -0.59 | -0.57 | -0.66 | inactive |
| SLC2A12 | -0.01 | -0.06 | -0.18 | 0.21 | inactive |
| ATP5PD | -0.59 | -0.61 | -0.47 | -0.69 | inactive |
| ZNF385A | 0.12 | -0.14 | 0.22 | 0.26 | inactive |
| PGBD1 | 1.14 | 1.25 | 1.11 | 1.07 | inactive |
| SAMTOR | 0.29 | 0.17 | 0.51 | 0.2 | inactive |
| NELFB | 0.86 | 0.88 | 0.97 | 0.72 | inactive |
| WNT9B | 0.42 | 0.38 | 0.46 | 0.43 | inactive |
| NBR1 | 2.02 | 1.93 | 2.17 | 1.96 | inactive |
| ATP6V1B1 | -0.94 | -0.7 | -0.77 | -1.35 | inactive |
| DDX1 | -0.34 | -0.24 | -0.65 | -0.14 | inactive |
| ABCD1 | 1.27 | 0.87 | 1.51 | 1.43 | inactive |
| TAPT1 | -0.76 | -0.86 | -0.9 | -0.51 | inactive |
| LOC388617 (retired record) | 0.36 | 0.51 | 0.24 | 0.34 | inactive |
